From article PMC12446476 (Nature Communications, 2025)
In brackets after ≈: the same amount, converted by molar mass.

Chains of the proteins cited; added tags and fusions are not shown. Residues count along the entry.
UniProt A0ACH0F547, 1-261: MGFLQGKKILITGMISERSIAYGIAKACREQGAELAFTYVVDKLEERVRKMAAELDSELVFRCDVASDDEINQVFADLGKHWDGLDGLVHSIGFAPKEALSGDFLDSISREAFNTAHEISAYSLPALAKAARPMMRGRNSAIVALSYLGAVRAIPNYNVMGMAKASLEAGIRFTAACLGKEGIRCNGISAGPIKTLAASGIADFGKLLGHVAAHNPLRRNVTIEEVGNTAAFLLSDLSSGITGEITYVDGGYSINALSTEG

How the values were obtained:
[1] = test system: N. gonorrhoeae; experiment: MIC determination, agar dilution (CLSI); format: cell-based, Neisseria gonorrhoeae
[2] = target: recombinant NgFabI protein (Neisseria gonorrhoeae, UniProt A0ACH0F547); conditions: read-out: NgFabI IC50
[3] = screening panel N. gonorrhoeae isolate A
[4] = screening panel N. gonorrhoeae isolate B
[5] = screening panel N. gonorrhoeae isolate C
[6] = screening panel N. gonorrhoeae isolate D
[7] = screening panel N. gonorrhoeae isolate E
[8] = screening panel N. gonorrhoeae isolate F
[9] = screening panel N. gonorrhoeae isolate G
[10] = screening panel N. gonorrhoeae isolate H
[11] = screening panel N. gonorrhoeae isolate I
[12] = screening panel N. gonorrhoeae isolate J
[13] = screening panel N. gonorrhoeae isolate K
[14] = screening panel N. gonorrhoeae isolate L
[15] = screening panel N. gonorrhoeae isolate M
[16] = screening panel N. gonorrhoeae isolate N

Structure (SMILES) | Minimum inhibitory concentration [1, 3] [µg/mL] | Minimum inhibitory concentration [1, 4] [µg/mL] | Minimum inhibitory concentration [1, 5] [µg/mL] | Minimum inhibitory concentration [1, 6] [µg/mL] | Minimum inhibitory concentration [1, 7] [µg/mL] | Minimum inhibitory concentration [1, 8] [µg/mL] | Minimum inhibitory concentration [1, 9] [µg/mL] | Minimum inhibitory concentration [1, 10] [µg/mL] | Minimum inhibitory concentration [1, 11] [µg/mL] | Minimum inhibitory concentration [1, 12] [µg/mL] | Minimum inhibitory concentration [1, 13] [µg/mL] | Minimum inhibitory concentration [1, 14] [µg/mL] | Minimum inhibitory concentration [1, 15] [µg/mL] | Minimum inhibitory concentration [1, 16] [µg/mL] | IC50 [2] [nM]
Cc1c(CN(C)C(=O)/C=C/c2cnc3c(c2)NCC(O)C(=O)N3)oc2ccccc12 (single isomer, unassigned) [Compound 7] | 0.125 (≈ 0.308 µM) | 0.06 (≈ 0.148 µM) | 0.06 (≈ 0.148 µM) | 0.06 (≈ 0.148 µM) | 0.03 (≈ 0.0738 µM) | 0.125 (≈ 0.308 µM) | 0.125 (≈ 0.308 µM) | 0.125 (≈ 0.308 µM) | 0.06 (≈ 0.148 µM) | 0.125 (≈ 0.308 µM) | 0.25 (≈ 0.615 µM) | 0.125 (≈ 0.308 µM) | 0.06 (≈ 0.148 µM) | 0.06 (≈ 0.148 µM) | 1.9
Cc1c(CN(C)C(=O)/C=C/c2cnc3c(c2)NCC(O)C(=O)N3)oc2ccccc12 (single isomer, unassigned) [Compound 8] | 1 (≈ 2.46 µM) | 0.5 (≈ 1.23 µM) | 0.5 (≈ 1.23 µM) | 0.5 (≈ 1.23 µM) | 0.25 (≈ 0.615 µM) | 1 (≈ 2.46 µM) | 1 (≈ 2.46 µM) | 1 (≈ 2.46 µM) | 0.5 (≈ 1.23 µM) | 0.5 (≈ 1.23 µM) | 1 (≈ 2.46 µM) | 0.5 (≈ 1.23 µM) | 1 (≈ 2.46 µM) | 0.5 (≈ 1.23 µM) | 15
